Measured values from several laboratories, pooled; numbers as filed in NIAID ChemDB.

All rows: tests in culture; organism: HIV-1; cells: PBMC; endpoint: EC50

Neighbouring rows are from separate reports. Blank or dashed fields: not listed here. ECn is the concentration giving n% inhibition of infection, replication or growth.

| compound | strain | mutations | method | result |
|---|---|---|---|---|
| CN(C)CCNc1cc(NCCN(C)C)nc(-c2cc3ccccc3s2)n1 | LAV-1 | - | RT activity | 2 µM |
| C#Cc1cnc(OC(=O)c2ccccc2)nc1OC(=O)c1ccccc1 | LAI | - | - | 1.3 µM |
| CN(C)CCSc1ccc(-c2cc(-c3ccc(SCCN(C)C)cc3)ncn2)cc1 | LAV | - | RT activity | 3.4 µM |
| CCOCn1c(Cc2ccccc2)c(C(C)C)c(=O)[nH]c1=O | CC4 | - | p24 | 0.0022 µM |
| CN(C)CCSc1cccc(-c2ccnc(-c3cccc(SCCN(C)C)c3)n2)c1 | LAV-1 | - | RT activity | 21.3 µM |
| CCCCCCCCCCCCCCCCCCOCCOP(=O)(O)CO[C@H](CO)Cn1ccc(N)nc1=O | NRTI-MDR | V75I F77L F116Y Q151M | p24 / ELISA | 0.027 µM |
| CC(C)C1=CC(=O)[C@@]2(C)CC[C@@]3(C)C=C[C@@](C)(O)CC[C@@H]3[C@@H]12 | LAV | - | RT activity | >100 µM |
| Cc1cn([C@H]2C[C@H](N=[N+]=[N-])[C@@H](CO)O2)c(=O)[nH]c1=O | 89.6 | - | p24 / ELISA | 0.095 µM |
| Cc1cn(CC(F)(F)C(F)(F)C(F)(F)COP(=O)(N[C@@H](C)C(=O)OC(C)C)Oc2ccccc2)c(=O)[nH]c1=O | LAI | - | RT activity | >100 µM |
| Cc1cn([C@H]2CO[C@@H](CO[P@]3(=O)OCC[C@H](c4cccc(Cl)c4)O3)O2)c(=O)[nH]c1=O | LAI | RT-M184V | RT activity | 2 µM |
| COc1c(C)c2c(c(O)c1C/C=C(\C)CCC(=O)O)C(=O)OC2 | IIIB | - | p24 | 0.11 µM |
| O=S(=O)(O)OCC1OC2OC3C(COS(=O)(=O)O)OC(OC4C(COS(=O)(=O)O)OC(OC5C(COS(=O)(=O)O)OC(OC6C(COS(=O)(=O)O)OC(OC7C(COS(=O)(=O)O)OC(OC1C(OS(=O)(=O)O)C2OS(=O)(=O)O)C(OS(=O)(=O)O)C7OS(=O)(=O)O)C(OS(=O)(=O)O)C6OS(=O)(=O)O)C(OS(=O)(=O)O)C5OS(=O)(=O)O)C(OS(=O)(=O)O)C4OS(=O)(=O)O)C(OS(=O)(=O)O)C3OS(=O)(=O)O | - | - | p24 | <1 µg/mL |
| C=CCc1ccccc1OP(=O)(N[C@@H](C)C(=O)OC)OC[C@@H]1OC[C@H](n2cc(C)c(=O)[nH]c2=O)O1 | LAI | RT-M184V | RT activity | 3.3 µM |
| CCCCCCCCCCCCCCCCCCOCCOP(=O)(O)CO[C@H](CO)Cn1cnc2c(N)ncnc21 | NRTI-MDR | V75I F77L F116Y Q151M | p24 / ELISA | 0.014 µM |
| COC(=O)[C@H](C)NP(=O)(OC[C@@H]1OC[C@H](n2cc(C)c(=O)[nH]c2=O)O1)Oc1ccc(C#N)cc1 | LAI | RT-M184V | RT activity | 0.54 µM |
| CN1CCN(CCSc2nccc(-c3cccs3)n2)CC1 | LAV-1 | - | RT activity | 16.9 µM |
| COc1cc2c(OC3OC(C)C(OC4OC(CO)C(O)C(O)C4O)C(O)C3OC(C)=O)c3c(c(-c4ccc5c(c4)OCO5)c2cc1OC)C(=O)OC3 | N119 | - | p24 / ELISA | 0.495 µM |
| CN(C)CCNc1nc(-c2cccs2)cc(-c2cccs2)n1 | LAV-1 | - | RT activity | 0.5 µM |
| CC(C)CCC[C@@H](C)[C@H]1CCC2C3CCC4C[C@@H](OCc5cn([C@@H]6O[C@H](COS(=O)(=O)[O-])[C@@H](O[C@H]7O[C@H](COS(=O)(=O)[O-])[C@@H](O[C@H]8O[C@H](COS(=O)(=O)[O-])[C@@H](OS(=O)(=O)[O-])[C@H](OS(=O)(=O)[O-])[C@H]8OS(=O)(=O)[O-])[C@H](OS(=O)(=O)[O-])[C@H]7OS(=O)(=O)[O-])[C@H](OS(=O)(=O)[O-])[C@H]6OS(=O)(=O)[O-])nn5)CC[C@]4(C)C3CC[C@@]21C | HI05-91 isolate (R5) | - | p24 / ELISA / antigen | 2 µg/mL |
| Nc1nc2c(ncn2CC(F)(F)C(F)(F)C(F)(F)CO)c(=O)[nH]1 | LAI | - | RT activity | >100 µM |
| CCO[C@@H]1Cc2cc(C(F)(F)F)ccc2C1N1CCN(C2(C)CCN(C(=O)c3c(C)ncnc3C)CC2)C[C@@H]1C | 92/BR/003 | - | p24 | 0.001 µM |
| CCCc1cc(=O)oc2c3c(c4c(c12)OC(C)(C)CC4)O[C@@H](C)[C@H](C)[C@@H]3O | CLADE E | - | RT activity | 0.5 µM |
| CCOC(=O)[C@H](C)NP(=O)(OCC(F)(F)C(F)(F)Cn1cc(C)c(=O)[nH]c1=O)Oc1ccccc1 | LAI | - | RT activity | 44 µM |
| CN1CCN(c2nc(-c3cccs3)cc(-c3cc4ccccc4s3)n2)CC1 | LAV | - | RT activity | 10.1 µM |
| Clc1cc(CN2CCCNCCNCCCNCC2)cc(Cl)n1 | X4 clinical isolate #10 | - | p24 | 2.6 µM |
| N=C1Sc2ccccc2C2=NCCCN12 | 92UG001 | - | β-galactosidase | 1.11 µM |
| c1csc(-c2cc(-c3cccs3)nc(N3CCOCC3)n2)c1 | LAV | - | RT activity | 48.5 µM |
| Cc1ccc(-c2ccc3c(c2)C=C(C(=O)Nc2ccc(C[N+](C)(C)C4CCOCC4)cc2)CCC3)cc1 | PCP1 CLADE C | - | p24 | <5 µM |
| CN(C)CCNc1nc(-c2cc3ccccc3s2)c2ccccc2n1 | LAV-1 | - | RT activity | 1.7 µM |
| CCCCCCCCCCCCCCCCCCOCCOP(=O)(O)CO[C@H](CO)Cn1cnc2c(N)nc(N)nc21 | NRTI-MDR | K65R | p24 / ELISA | 0.074 µM |
| Cc1ccc(NC(=O)CN2CCN(Cc3nc(-c4ccc(F)cc4)no3)CC2)cc1 | CMU08 | - | RT activity | 11.7 µM |
| COC[C@@H](c1ccc(C(F)(F)F)cc1)N1CCN(C2(C)CCN(C(=O)c3c(C)ncnc3C)CC2)C[C@@H]1C | R14/S | G514V | - | 0.00025 µM |
| Nc1ccn(CC(F)(F)C(F)(F)CO)c(=O)n1 | LAI | - | RT activity | >100 µM |
| N=C1Sc2ccccc2C2=NCCCN12 | RU132 | - | MTS | 0.2 µM |
| COC(=O)[C@H](Cc1ccccc1)NP(=O)(OC[C@@H]1OC[C@H](n2cc(C)c(=O)[nH]c2=O)O1)Oc1ccccc1 | LAI | RT-M184V | RT activity | 1.9 µM |
| COc1ncc(I)c(OC)n1 | LAI | - | - | >100 µM |
| CCOC(=O)[C@H](C)NP(=O)(OCC(F)(F)C(F)(F)Cn1ccc(N)nc1=O)Oc1ccccc1 | LAI | - | RT activity | >100 µM |
| C[C@H]1[C@H](O)[C@@H](C)/C=C/C=C/C=C/C=C/C=C/C=C/C=C/[C@H](O[C@@H]2O[C@H](C)[C@@H](O)[C@H](N)[C@@H]2O)C[C@@H]2O[C@](O)(C[C@@H](O)C[C@@H](O)CC[C@H](O)[C@@H](O)C[C@@H](O)CC(=O)O[C@H]1C)C[C@H](O)[C@H]2C(=O)O | 92UG037 CLADE A R5 (NSI) | - | p24 / RT activity | 1.5 µM |
| C#Cc1cnc(C(=O)c2ccccc2)nc1C(=O)c1ccccc1 | LAI | - | - | 2.1 µM |
| C=CCN(C(=O)OCc1ccc([N+](=O)[O-])cc1)C1CCN(C[C@H]2CN(C(=O)C3CCCC3)C[C@]2(O)c2ccccc2)CC1 | NL4-3 X4 CLADE B | - | p24 | >1 µM |
| CN1CCN(CCSc2nnc(-c3ccc4ccccc4c3)c3ccccc23)CC1 | LAV-1 | - | RT activity | 12.2 µM |
| CC1=CC[C@]2(C)CC[C@]3(C)C(=O)C=C(C(C)C)[C@@H]3[C@H]2CC1 | LAV | - | RT activity | >100 µM |
| O=C(NCc1ccc(F)cc1)C1C(=O)N(O)C(=O)c2ccccc21 | IIIB | - | - | 0.458 µM |
| Nc1nc(=O)n([C@H]2C=C[C@@H](CO)O2)cc1F | RT-M184V XM-M184V | RT-M184V | p24 | <1.3 µM |
| Cc1cncnc1-c1ccc(SCCN(C)C)cc1 | LAV | - | RT activity | 31.3 µM |
| Nc1nc(=O)n([C@@H]2O[C@H](CO)C=C2F)cc1F | RT-M184V | - | RT activity | <34.7 µM |
| COc1ccc(/C=C/c2cc(Cl)c3ccccc3n2)c(OC)c1 | VB51 | - | p24 / ELISA | 7.34 µM |
| CN(C)CCNc1nc(-c2ccoc2)cc(-c2cc3ccccc3s2)n1 | LAV-1 | - | RT activity | 1.3 µM |
| Nc1nc(NC2CC2)c2ncn([C@H]3C=C[C@@H](CO)C3)c2n1 | XM-M184V | RT-M184V | p24 | <7 µM |
| Cc1cn([C@H]2CO[C@@H](COP(=O)(N[C@@H](C)C(=O)OCc3ccccc3)Oc3ccc(Br)cc3)O2)c(=O)[nH]c1=O | LAI | RT-M184V | RT activity | 1.9 µM |
| CN(C)CCSc1cccc(-c2cc(-c3cccc(SCCN(C)C)c3)ncn2)c1 | LAV | - | RT activity | 1.6 µM |
| CS(=O)c1ccc(-c2nc(-c3ccc(F)cc3)c(-c3ccncc3)[nH]2)cc1 | 89.6 | - | p24 | >1 µM |
| O=C(CNC(=O)COc1ccccc1)NCc1ccc(C(=O)N2CCCCC2)cc1 | G-3 | - | RT activity | 18.9 µM |
| CN(C)CCSc1nc(-c2cccs2)cc(-c2cccs2)n1 | LAV | - | RT activity | 48.9 µM |

A second listing of 5 rows from above:

compound	strain	mutations	method	result
C=CCc1ccccc1OP(=O)(N[C@@H](C)C(=O)OC)OC[C@@H]1OC[C@H](n2cc(C)c(=O)[nH]c2=O)O1	LAI	RT-M184V	RT activity	3.3 µM
CCOC(=O)[C@H](C)NP(=O)(OCC(F)(F)C(F)(F)Cn1ccc(N)nc1=O)Oc1ccccc1	LAI	-	RT activity	>100 µM
O=C(CNC(=O)COc1ccccc1)NCc1ccc(C(=O)N2CCCCC2)cc1	G-3	-	RT activity	18.9 µM
O=S(=O)(O)OCC1OC2OC3C(COS(=O)(=O)O)OC(OC4C(COS(=O)(=O)O)OC(OC5C(COS(=O)(=O)O)OC(OC6C(COS(=O)(=O)O)OC(OC7C(COS(=O)(=O)O)OC(OC1C(OS(=O)(=O)O)C2OS(=O)(=O)O)C(OS(=O)(=O)O)C7OS(=O)(=O)O)C(OS(=O)(=O)O)C6OS(=O)(=O)O)C(OS(=O)(=O)O)C5OS(=O)(=O)O)C(OS(=O)(=O)O)C4OS(=O)(=O)O)C(OS(=O)(=O)O)C3OS(=O)(=O)O	-	-	p24	<1 µg/mL
Nc1nc(=O)n([C@H]2C=C[C@@H](CO)O2)cc1F	RT-M184V XM-M184V	RT-M184V	p24	<1.3 µM